System: Mtb PrcAB-OG
Settings: ratio of kinact/K (Mtb-20S OG) versus kobs/[I] (H20S β5)

Structure (SMILES)	Selectivity
O=c1oc(-c2cc3c(s2)CCCC3)ns1	22.6
O=c1oc(-c2cc3ccccc3s2)ns1	6.4

From US20110118274A1, “PROTEASOME INHIBITORS AND THEIR USE IN TREATING PATHOGEN INFECTION AND CANCER” (CORNELL RESEARCH FOUNDATION, INC., priority 2007, published 2011)
